# Zika virus NS2B-NS3: effect of single substitutions on growth in cell culture

Source: Ni et al. 2025 (doi:10.1038/s41467-025-63602-z), supplementary data.

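Mutant virus pools were grown in human Huh-7.5 cells. The effect is the change in frequency of a mutant, normalised to wild type, as a mean of three replicate libraries (two for positions 207-308). The aim was to find sites where inhibitor-binding pockets cannot change.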

Protein: NS2B and the protease part of NS3 of Zika virus strain MR766. Positions count along the chain below; NS2B spans 2-131 and NS3 starts at 132.
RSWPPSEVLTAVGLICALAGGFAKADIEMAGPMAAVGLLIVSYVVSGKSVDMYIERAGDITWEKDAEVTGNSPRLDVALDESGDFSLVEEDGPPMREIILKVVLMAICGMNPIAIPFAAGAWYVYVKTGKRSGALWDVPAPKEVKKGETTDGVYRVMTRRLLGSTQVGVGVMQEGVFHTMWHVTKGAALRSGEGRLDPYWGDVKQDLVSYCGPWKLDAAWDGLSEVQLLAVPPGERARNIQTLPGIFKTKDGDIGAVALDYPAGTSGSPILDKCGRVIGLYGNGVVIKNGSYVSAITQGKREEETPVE

Scale: log2 effect, wild type = 0; the lower, the more harmful to the virus.
Substitutions are written as wild-type residue, site number, new residue.
The authors count -1 or higher as tolerated. Position 1 is the last residue of NS2A.
Positions 1-103, 104-206 and 207-308 were made and measured as separate libraries.
Six mutants with high scores were retested singly and none clearly outgrew wild type, so positive values are not proof of better growth.

* G109R = -6.44
* V144G = -5.19
* G275K = -4.08
* G47C = -4.60
* E28V = -2.35
* G170L = -7.20
* R131M = -4.89
* P141M = -4.51
* G275W = -3.94
* S2R = -7.60
* Q298A = -5.25
* Y210R = -7.71
* G83W = -6.31
* P213N = -2.55
* A78Y = 0.09
* L39V = -1.86
* S266W = -5.65
* G129P = -1.33
* M172G = -6.87
* K101N = -3.76
* E174S = -4.42
* E143I = -0.22
* G222P = -6.06
* L259M = -5.62
* S209E = -6.24
* K185V = -5.45
* A30W = -5.89
* K273A = -1.43
* L223A = -0.05
* S209C = -0.68
* S42V = -6.61
* G120H = -6.40
* T128G = -0.45
* E7C = -2.17
* G194S = -6.44

2 of these entries, quoted again:

{"change": "K273A", "log2 effect": -1.43}
{"change": "S42V", "log2 effect": -6.61}